The source of these data is PMC3576412, “A Force-Activated Trip Switch Triggers Rapid Dissociation of a Colicin from Its Immunity Protein” (PLoS Biology, 2013).

The target in the assay is T1, full length colicin E9 (E. coli, UniProt P09883 1-582).
T1 construct: also called full length ColE9
T1 sequence: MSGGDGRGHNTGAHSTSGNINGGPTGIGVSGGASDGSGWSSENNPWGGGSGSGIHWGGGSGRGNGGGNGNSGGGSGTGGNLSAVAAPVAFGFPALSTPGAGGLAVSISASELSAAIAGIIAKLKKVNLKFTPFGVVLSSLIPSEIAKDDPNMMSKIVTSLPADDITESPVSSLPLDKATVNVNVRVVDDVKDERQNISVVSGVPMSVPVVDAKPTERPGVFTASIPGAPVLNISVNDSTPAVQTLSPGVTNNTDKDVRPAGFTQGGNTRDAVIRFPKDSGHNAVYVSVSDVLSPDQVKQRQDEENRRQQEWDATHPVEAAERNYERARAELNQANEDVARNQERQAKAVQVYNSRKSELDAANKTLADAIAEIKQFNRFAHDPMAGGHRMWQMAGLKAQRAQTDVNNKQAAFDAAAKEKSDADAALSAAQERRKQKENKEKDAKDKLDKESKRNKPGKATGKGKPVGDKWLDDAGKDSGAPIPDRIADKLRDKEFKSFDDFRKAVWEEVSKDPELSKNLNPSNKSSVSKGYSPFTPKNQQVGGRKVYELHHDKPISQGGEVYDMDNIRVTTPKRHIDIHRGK
The assay can be described thus: SEC. As to conditions: both partners purified.

B1: Im9 (S81C) derivatised with methyl-(PEG)12-maleimide (natural protein)
chain: not shown
notes: also called derivatised Im9 (S81C); source: derivatised with MM(PEG)12 and separated by size exclusion chromatography
Take B1: the binding result is recorded as “binds”.
